PMC11139207

Biological target: Lsr2 (Mycobacterium smegmatis MC2 155) (UniProt A0R576)
Experiment: EMSA
Conditions: room temperature, 20 min, binding buffer not given (as described previously), protein storage buffer 20 mM Tris-HCl, 100 mM NaCl, 1 mM DTT, 10% glycerol, recombinant protein, residues 1-114, protein details: His-GST (pGEX-6T-1), probe letters rebuilt from the primers and the genome

| Sequence | binding result |
| --- | --- |
| GAAATAGCGTGTGCCCAAGAGGGTTCCGCCGCCGATCACCTGCGCGCTGCGCCGCAACAACCGGTTACGACCCGACACCACCGCACGCAACCGCTCCCCCGGCAACACCGGAAGATCCACAAACCCCGCGCCCGGCAACTGCGCACACACCGCGTCATAAATCGCGTCATCACCCAGATTGCCCCGACCATGCCACCCCAGATAACCCACCAAGGGACGCACAGTGGCGGCGGTCGCACGATTGTCGGTTGCCCGGTTCAGGCTCATGAAAACTCTCTGGCGTTCGGCTTGAATTGTTCATCGAAAAGGTGCGCGCCGTCCGTCGCACTCGCAGATGGGCGGGCCGATGAAGGATCCAACGGTACCCCGCCACGTGGCCTGCGGCCATCTTCGGTCATACTGGTGGTATCCGGTCGGCCCACGAAAAGACGCGTTTGTCGCGTCGATGCTAGCCTCCCGGAAAACAACAGGTGTGGTGGGCGGCCCCGATCCGGGTCGCCCCGATTGCGGCGCACCGATTCGACGACGTCGAAATTTCACATGCTCGAGGAGTTTTAGCAA (double strand) [S3 (MSMEG_4737p)] | binds |
| GGCGGCGGGAAGTCGACCGCGACGAACACGGCCCGCGGTGGGAGTTCGAACGCAGGCAACCGATTTCCGACGATGATGATGAGATGGTCGTCACAGGACTGCCGGCTGACCGATCGAAGCGTGTCCTGAAGCAGCGCTTCGACGCGACCGTAATCCGCGGAGTTCCGCGGATGTCGCAAGGTGGTGATGAAGGCCAGCATCGCGGGGAACTCTACCGAGTTCAGAGCGTTATCACGAATCGGTGAACGCCCAAATAATCAGCCGGACAGCACATTACGTGATCTTGGAATCGCGGCAAACCACAGTGGGTTTGCTCCGCGTCACCGA (double strand) [S2 (MSMEG_4735p)] | binds |
